Laboratory results from patent publication US20260256822A1, “ENTRY-MODULATING AGENTS AND USES THEREFOR” (priority 2022, published 2026).

Biological target: PvCyRPA (Plasmodium vivax, UniProt A5K678, A187P/D259E/E126K/E159D/E86Q/G127E/G69A/H95N/K131E/K185E/K93E/Q142K/R122K/T90K)
Assay: SPR binding of drugs to recombinant PvCyRPA
Settings: Table 12, PvCyRPA

Structure (SMILES)	Kd
CC(O)C(=O)O.CCOc1ccc2nc3cc(N)ccc3c(N)c2c1 (racemic) [RIVANOL, 6,9-Diamino-2-ethoxyacridine-DL-lactate monohydrate]	6.98 nM
CCC(C)[C@H]1O[C@]2(CC[C@@H]1C)C[C@@H]1C[C@@H](C/C=C(\C)[C@@H](O[C@H]3C[C@H](OC)[C@@H](O[C@H]4C[C@@H](OC)[C@H](O)[C@@H](C)O4)[C@H](C)O3)[C@@H](C)/C=C/C=C3\CO[C@@H]4[C@H](O)C(C)=C[C@@H](C(=O)O1)[C@]34O)O2 (some centres unmarked) [Ivermectin]	161 nM
